Pooled drug test results. Numbers come from NIAID ChemDB, via PubChem.

Shared fields: tests in culture

ECn: concentration that inhibits the pathogen or its effect by n%. Inhibition is in % at the dose shown (toxicity tests: loss of growth or viability). Blank or dashed fields: not listed here. Rows are shuffled and stem from different studies. MIC50, MIC90 and the like: level of inhibition, or share of isolates inhibited.

structure | organism | strain or isolate | cells | read by | endpoint | tested at | value
Cc1cc(CCCOc2c(C)cc(-c3noc(C(F)(F)F)n3)cc2C)on1 | Rhinovirus | Isolate 42 | OHIO HELA-I | cytopathic effect / visual reading | EC50 | - | 0.02 µg/mL
Cc1cc(-c2ccc(N=Nc3c(N)c(S(=O)(=O)O)cc4cc(S(=O)(=O)O)ccc34)c(C)c2)ccc1N=Nc1c(N)ccc2cc(S(=O)(=O)O)ccc12 | Herpes simplex virus | - | Human conjunctiva cells | cytopathic effect | inhibition | 50 µg/mL | 100%
Cc1cn([C@@H]2O[C@H](CO)[C@@H](O)[C@@H]2F)c(=O)nc1N | Varicella zoster virus | HIRAI | HELF | plaque count | inhibition | 0.01 µg/mL | 100%
Oc1ccccc1N=Cc1ccc2c(c1)OCO2 | Cryptococcus neoformans | WP | - | - | MIC99 | - | 5.7 µg/mL
O=C(Nc1cc(S(=O)(=O)O)cc2cc(S(=O)(=O)O)cc(O)c12)c1ccccc1 | Adenovirus | TYPE 3 | Human embryonic lung cells | cytopathic effect | inhibition | 50 µg/mL | 20%
O=c1[nH]c(=O)n([C@H]2C[C@H](O)[C@@H](CO)O2)cc1I | Varicella zoster virus | OKA | HELF | plaque count | inhibition | 1 µg/mL | 100%
CCO/N=C/c1ccc(OCCC2CCN(c3ccc(Cl)nn3)CC2)cc1 | Rhinovirus | 1505 (ICAM-1 receptor group 48) | KB | neutral red | EC50 | - | 0.103 µM
Oc1ccccc1C=Nc1ccccc1O | Cryptococcus gattii | L 27/01 | - | - | MIC99 | - | 16 µg/mL
O=S(=O)([O-])c1ccc(NS(=O)(=O)c2ccccc2)c2c(S(=O)(=O)[O-])cccc12 | Adenovirus | TYPE 3 | Human embryonic lung cells | cytopathic effect | inhibition | 10 µg/mL | 0%
Cc1nc(NCCCCNc2ccnc3cc(Cl)ccc23)nc(-c2ccccc2[N+](=O)[O-])c1C(=O)OC(C)C | Cryptococcus neoformans | ATCC 28957 | - | - | MIC99 | - | 1.4 µg/mL
C=CCc1ccc(OC)c(OC)c1 | Candida tropicalis | 2863 | - | turbidity | MIC90 | - | 345 µg/mL
CCc1cn([C@@H]2O[C@H](CO)[C@@H](O)[C@@H]2O)c(=O)[nH]c1=O | Varicella zoster virus | Ohtomo | HELF | plaque count | inhibition | 100 µg/mL | 52%
O=C(Nc1ccc2c(O)c(N=Nc3ccc(N=Nc4ccc(S(=O)(=O)O)cc4)cc3)c(S(=O)(=O)O)cc2c1)c1ccccc1 | Adenovirus | TYPE 3 | Human amnion AV3 cells | cytopathic effect | inhibition | 10 µg/mL | 0%
CCOC(=O)c1c(C)nc(NCCCCNc2ccnc3cc(Cl)ccc23)nc1-c1ccc(F)cc1 | Cryptococcus neoformans | WP | - | - | MIC99 | - | 8 µg/mL
Nc1nc2c(ncn2COCCO)c(=O)[nH]1 | Varicella zoster virus | HIRAI | HELF | plaque count | inhibition | 10 µg/mL | 100%
Oc1ccccc1N=Cc1ccc(O)c(O)c1O | Cryptococcus neoformans | VM-MCMMPI | - | - | MIC99 | - | 11.3 µg/mL
CCC(CC)O[C@@H]1C=C(C(=O)O)C[C@H](N)[C@H]1NC(C)=O | Influenza A virus | Influenza A/Johannesburg/33/94 (H3N2) | MDCK | - | EC50 | - | 0.5 µM
Cc1cc(-c2ccc(N=Nc3ccc4c(S(=O)(=O)O)cc(S(=O)(=O)O)c(N)c4c3O)c(C)c2)ccc1N=Nc1ccc2c(S(=O)(=O)O)cc(S(=O)(=O)O)c(N)c2c1O | Herpes simplex virus | - | Human amnion AV3 cells | cytopathic effect | inhibition | 5 µg/mL | 10%
O=c1[nH]c(=O)n([C@H]2C[C@H](O)[C@@H](CO)O2)cc1/C=C/Br | Varicella zoster virus | Ohtomo | HELF | plaque count | inhibition | 0.1 µg/mL | 100%
Cc1nc(NCCCCNc2ccnc3cc(Cl)ccc23)nc(-c2ccccc2)c1C(=O)OC(C)C | Cryptococcus gattii | L-28/02 | - | - | MIC99 | - | 8 µg/mL
Nc1cc(S(=O)(=O)[O-])cc2cc(S(=O)(=O)[O-])ccc12 | Adenovirus | TYPE 3 | Human embryonic lung cells | cytopathic effect | inhibition | 50 µg/mL | 0%

Repeating the first 2 entries:

structure	organism	strain or isolate	cells	read by	endpoint	tested at	value
Cc1cc(CCCOc2c(C)cc(-c3noc(C(F)(F)F)n3)cc2C)on1	Rhinovirus	Isolate 42	OHIO HELA-I	cytopathic effect / visual reading	EC50	-	0.02 µg/mL
Cc1cc(-c2ccc(N=Nc3c(N)c(S(=O)(=O)O)cc4cc(S(=O)(=O)O)ccc34)c(C)c2)ccc1N=Nc1c(N)ccc2cc(S(=O)(=O)O)ccc12	Herpes simplex virus	-	Human conjunctiva cells	cytopathic effect	inhibition	50 µg/mL	100%